# Results taken from PubChem BioAssay AID720706 (Broad Institute, 2013).
# Only a part is listed here, and it is no random draw. Activity calls are given as the source filed them.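 Rule for the calls: active = significant combined selectivity score with lowered wild-type GFP, culture density cut under 30%, mutant RFP and density less affected; inactive = any of these conditions unmet.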
# Experiment: reduced GFP signal of wild-type E. coli, primary screen, bacterial rRNA inhibitor project, GFP/RFP fluorescence, OD600, single point (AID 720706)
# Details: E. coli WT GFP vs humanized-ribosome RFP mutants, 24 h, active compounds read low, DMSO median 0, no signal -100
row,SMILES,GFP signal change (wild-type ribosome)
1,Nc1ccc([As](=O)(O)c2ccc(N)cc2)cc1,inactive: 8.29%
2,C[N+]1=C2C=CC=CC=C2SC12C([N+](=O)[O-])=CC([N+](=O)[O-])=C[C-]2[N+](=O)[O-] (configuration not stated),inactive: -2.23%
3,c1cc(-c2nn[nH]n2)ccc1-c1nn[nH]n1,inactive: -0.215%
4,CC(C)c1nc(Nc2ccccc2)n(P(=O)(N(C)C)N(C)C)n1,inactive: 6.87%
5,CN(C)C(=O)c1c([N+](=O)[O-])cc([N+](=O)[O-])cc1[N+](=O)[O-],inactive: 10.5%
6,CC(C)=N/N=C(\N)N[N+](=O)[O-],inactive: 6.53%
7,COc1ccc(C2=NCC(CBr)S2)cc1 (configuration not stated),inactive: -0.775%
8,Cc1ccc(NP(=O)(Oc2ccccc2)Oc2ccccc2)nc1,inactive: 8.39%
9,CCc1ccc(OP(C)(=O)Nc2cccnc2)cc1 (configuration not stated),inactive: 1.31%
10,O=[N+]([O-])c1cc([N+](=O)[O-])c(CCNc2ccccc2)c([N+](=O)[O-])c1,inactive: -10.3%
11,O=C(OCCCN1CCCC1)C(O)(c1ccccc1)C1CCCCC1 (configuration not stated),inactive: 11.4%
12,O=C(NC(Sc1ccncn1)C(Cl)(Cl)Cl)c1ccccc1 (configuration not stated),inactive: 6.41%
13,Nc1cc(N)c2nonc2c1[N+](=O)[O-],inactive: 8.05%
14,CC(C)CC(=O)NC(Sc1ccc(Cl)cc1)C(Cl)(Cl)Cl (configuration not stated),inactive: -14.7%
15,O=[N+]([O-])c1cc([N+](=O)[O-])c(Nc2ccccn2)c([N+](=O)[O-])c1,active: -31.8%
16,CN(C(=O)Cc1ccc(Cl)c(Cl)c1)[C@H]1CCCC[C@H]1N1CCCC1,inactive: 9.57%
17,COc1ccccc1OP(C)(=O)Nc1ccc(Br)cc1 (configuration not stated),inactive: 3.85%
18,NC(=O)c1cc([N+](=O)[O-])cc([N+](=O)[O-])c1N,inactive: 7.04%
19,Clc1ccc(Cl)c(NC2=NCC(CBr)S2)c1 (configuration not stated),inactive: -22.6%
20,COc1ccccc1OP(=O)(Nc1ccc(C)cn1)Oc1ccccc1OC,inactive: 20.4%
21,Cc1ccc(OP(=O)(Nc2nccs2)Oc2ccc(C)cc2)cc1,inactive: 4.36%
22,Nc1cccc2ccc([As](=O)(O)O)cc12,inactive: -19.9%
23,CCCCCCCCCCCCCCCC1C[N+](C)(C)CCOP(C)(=O)O1 (configuration not stated),inactive: -55.1%
24,CP(=O)(Nc1ccc(Cl)cc1Cl)Oc1ccccc1 (configuration not stated),inactive: -13.6%
25,CP(=O)(OCCOc1ccccc1)OCCOc1ccccc1,inactive: -7.47%

row,SMILES,GFP signal change (wild-type ribosome)
1,CN(C(=O)Cc1ccccc1)C1CC[C@@]2(CCCO2)C[C@@H]1N1CCCC1 (some centres not stated),inactive: 6.69%
2,O=C1C(O)=C([N+](=O)[O-])C(=O)C(O)=C1[N+](=O)[O-],inactive: 18.4%
3,O=P(Nc1nc2ccc(Cl)cc2s1)(c1ccccc1)c1ccccc1,inactive: -48%
4,Cc1cc(C)cc(OP(C)(=O)Nc2cccc(C(F)(F)F)c2)c1 (configuration not stated),inactive: 12.3%
5,CN(C)P(=O)(N(C)C)n1c(Nc2ccccc2)nnc1-c1ccccc1,inactive: -23.1%
6,CC(=O)Nc1ccc([As](=O)(O)O)cc1,inactive: 5.38%
7,O=C(O)c1ccccc1[As](=O)(O)O,inactive: -12.6%
8,CCCC1OP(N)(=O)OCC1CC (configuration not stated),inactive: 14.9%
9,CCn1c(=O)n(C2CCN(CC3CCCCCCC3)C[C@H]2CO)c2ccccc21 (some centres not stated),inactive: 2.88%
10,Cc1ccc(NP(=O)(Oc2ccccc2F)Oc2ccccc2F)nc1,inactive: 24.9%
11,COC(=O)C1(C)COP(=O)(N2CCCCCC2)OC1 (configuration not stated),inactive: 3.77%
12,CC(C)c1ccc(OP(=O)(Nc2ccccn2)Oc2ccccc2F)cc1 (configuration not stated),inactive: -5.63%
13,COc1ccccc1OP(C)(=O)Nc1cc(Cl)ccc1C (configuration not stated),inactive: -18.1%
14,CC(C)NC(=O)NP(=O)(Oc1ccccc1)Oc1ccccc1,inactive: 13.6%
15,O=C(OC1CN2CCC1CC2)c1cccc2[nH]cnc12 (configuration not stated),inactive: 3.66%
16,Cc1cc(C)cc(OP(C)(N)=O)c1 (configuration not stated),inactive: 12.4%
17,O=[N+]([O-])c1cc([N+](=O)[O-])c(Nc2cccnc2)c([N+](=O)[O-])c1,inactive: -25%
18,C[As](=O)(O)c1cccc(C(=O)O)c1,inactive: 7.12%
19,O=[As](O)(c1ccc(O)cc1)c1ccccc1O,inactive: 14.6%
20,O=[N+]([O-])c1ccc(-c2cc([N+](=O)[O-])c(O)c([N+](=O)[O-])c2)cc1,inactive: -68.9%
21,COc1cc(C(=O)NCC2(N3CCOCC3)CCCCC2)ccc1OCC(C)C,inactive: -0.36%
22,[N-]=[N+]=NC1CCCCC1NC(=O)c1cc([N+](=O)[O-])cc([N+](=O)[O-])c1 (configuration not stated),inactive: 6.54%
23,Cc1ccc(OP(=O)(Nc2ccc([N+](=O)[O-])cn2)Oc2ccc(C)cc2)cc1,inactive: 8.22%
24,CC(C)(C)c1ccc(OP(C)(=O)Nc2ccc(SC(F)(F)F)cc2)cc1 (configuration not stated),inactive: 4.12%
25,Cc1cccc(C)c1OP(C)(N)=O (configuration not stated),inactive: 13.6%

row,SMILES,GFP signal change (wild-type ribosome)
1,O=[N+]([O-])c1ccc2c(c1)C=Nc1ccccc1O2,inactive: -30.8%
2,Cc1ccc2nc3c(c(C)c2c1)CC(C(Cl)Cl)S3 (configuration not stated),inactive: 3.21%
3,COc1ccc(N/C(=N/P(=O)(N2CCOCC2)N2CCOCC2)N2CCOCC2)cc1,inactive: 5.67%
4,COc1ccccc1-c1ccccn1.O=[N+]([O-])c1cc([N+](=O)[O-])c(O)c([N+](=O)[O-])c1,inactive: 0.045%
5,Cc1c2c(nc3ccccc13)SC(C(Cl)Cl)C2 (configuration not stated),inactive: -54.5%
6,Cc1cc(=O)[nH]c(N[N+](=O)[O-])n1,inactive: 13.2%
7,CCN(CC)CCCOC(=O)C(O)(c1ccccc1)c1ccccc1,inactive: 4.29%
8,O=P1(N(CCCl)CCCl)OCCCN1CCCl (configuration not stated),inactive: 14.7%
9,O=P1(N(CCCl)CCCl)Nc2ccccc2N1,inactive: 4.09%
10,COc1ccc2nc(NP(=O)(c3ccccc3)c3ccccc3)sc2c1,inactive: 3.93%
11,COc1cc(I)ccc1[As](=O)(O)O,inactive: 6.31%
12,O=C(OC1CN2CCC1CC2)c1cccc([N+](=O)[O-])c1 (configuration not stated),inactive: 5.96%
13,CCOC(=O)c1ccc(NC(=O)C(C)(CCl)SC)cc1 (configuration not stated),inactive: -0.796%
14,CCOC(=O)c1ccc(NP(C)(=O)Oc2ccc(OC)cc2)cc1 (configuration not stated),inactive: 6.28%
15,CP(=O)(Nc1ccccn1)Oc1ccc(Cl)cc1 (configuration not stated),inactive: 14%
16,COP1(=S)c2c(C)nn(CCC#N)c2N=C(c2ccc(F)cc2)N1C (configuration not stated),inactive: -1.2%
17,CP(=O)(Nc1ccc(SC(F)(F)F)cc1)Oc1ccc(Cl)cc1 (configuration not stated),inactive: -41.9%
18,CP(=O)(Oc1ccccc1)OC(c1ccccc1)C(F)(F)F (configuration not stated),inactive: 0.865%
19,COC(=O)C1(C)COP(=O)(N2CCCC2)OC1 (configuration not stated),inactive: 5.76%
20,CP(=O)(NC(=O)Nc1ccccc1)Oc1ccccc1 (configuration not stated),inactive: 3.82%
21,O=C(Nc1ccncc1[N+](=O)[O-])c1ccc([N+](=O)[O-])cc1[N+](=O)[O-],inactive: -2.69%
22,CCOC(=O)Nc1cccc([As](=O)(O)O)c1,inactive: 30.1%
23,O=P(Nc1ccccn1)(c1cccc2ccccc12)c1cccc2ccccc12,inactive: 19.2%
24,Cc1cc(SC(NC=O)C(Cl)(Cl)Cl)ncn1 (configuration not stated),inactive: 12.1%
25,COc1ccccc1OP(C)(=O)Nc1ccccc1 (configuration not stated),inactive: 20.2%

row,SMILES,GFP signal change (wild-type ribosome)
1,CP(=O)(Nc1ccccc1Br)Oc1ccccc1 (configuration not stated),inactive: 7.32%
2,O=[N+]([O-])c1ccc(Nc2ccc(Oc3ccc([N+](=O)[O-])cc3[N+](=O)[O-])cc2)c([N+](=O)[O-])c1,inactive: -4.37%
3,O=C(O)C(=O)c1ccc(N(CCCl)CCCl)cc1.c1ccc(Nc2ccccc2)cc1,inactive: -3.31%
4,CCOC(=O)Nc1ccc([As](=O)(O)O)c(O)c1,inactive: 11.6%
5,CC1CCNP(=O)(N(CCCl)CCCl)O1 (configuration not stated),inactive: 5.81%
6,COP(=O)(OC)N1CC1c1ccccc1 (configuration not stated),inactive: 6.8%
7,CCCCOc1ccc(C(=O)NCC2(N3CCCCC3)CCCCC2)cc1OC,inactive: 3.76%
8,CN1CCCCC1COC(=O)C1(O)c2ccccc2CCc2ccccc21 (configuration not stated),inactive: 3.38%
9,CCCOc1ccc(NP(C)(=O)Oc2ccc(Cl)cc2)cc1 (configuration not stated),inactive: -26.3%
10,Nc1cccc([As](=O)(O)c2ccccc2)c1,inactive: 8.05%
11,O=[As](O)(c1cccs1)c1cccs1,inactive: 9.88%
12,NS(=O)(=O)c1cccc(NC(=O)COC(=O)C(O)(c2ccccc2)c2ccccc2)c1,inactive: -4.04%
13,CC1CCC(C(C)C)C(OP(=O)(Nc2ccccn2)c2ccccc2)C1 (configuration not stated),inactive: -47.8%
14,Cc1ccc(C(=O)OC2CN3CCC2CC3)cc1 (configuration not stated),inactive: 19.2%
15,CN(C)C1(CNC(=O)c2ccc(S(C)(=O)=O)cc2)CCCCC1,inactive: 16.8%
16,O=[N+]([O-])c1cc([N+](=O)[O-])c(Nc2nnnn2CCO)c([N+](=O)[O-])c1,active: -21.8%
17,CCOC(=O)C(CC)C1=NC(C)(C)Cc2ccccc21.O=[N+]([O-])c1cc([N+](=O)[O-])c(O)c([N+](=O)[O-])c1 (configuration not stated),inactive: 3.02%
18,O=C(/C=C/c1ccccc1)OC1CN2CCC1CC2 (configuration not stated),inactive: 3%
19,CCCC1OP(=O)(Nc2ccccc2)OCC1CC (configuration not stated),inactive: 7.52%
20,COc1ccccc1CNC(=O)COC(=O)C(O)(c1ccccc1)c1ccccc1,inactive: -6.89%
21,Cc1ccc(S(=O)(=O)N(CCCN)CCCc2c(C)nc(N)[nH]c2=O)cc1.O=[N+]([O-])c1cc([N+](=O)[O-])c(O)c([N+](=O)[O-])c1,inactive: -5.55%
22,CN(C(=O)Cc1ccc(Cl)c(Cl)c1)[C@@H]1CCCC[C@H]1N1CCCC1,inactive: 5.11%
